In PubChem BioAssay AID624268 (The Scripps Research Institute Molecular Screening Center, 2012):
Only a part is listed here, and it is no random draw. Active and inactive are the calls of the source.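 How the source made its calls: active means inhibition above a per-plate cutoff of the control wells' mean inhibition plus 3 SD (cut at about 5.5% in these data); inactive means the rest.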

tested on: methionyl-tRNA synthetase (Trypanosoma brucei brucei); test: T. brucei MetRS inhibitors, primary screen, biochemical, luminescence (AID 624268);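 further: 0% = DMSO wells median and 100% = median of wells with control inhibitor compound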; details: purified T. brucei MetRS, ATP depletion, Kinase-Glo luminescence; at 11.9 µM; hits give high values
Summary of the method: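 Assay system: T. brucei methionyl-tRNA synthetase, purified | Medium: HEPES buffer with MgCl2, KCl, DTT, spermine, BSA, pyrophosphatase | Compound: 11.9 µM single point | Incubation: 15 min enzyme-compound preincubation, 2 h reaction, 10 min detection, 25 °C | Measured by: Kinase-Glo luciferase luminescence reporting remaining unconsumed ATP | Measure: % inhibition normalized to control-well medians | Replication: Singlicate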

Compound	inhibition
CN(C)C(=O)Oc1noc2ccccc12	inactive: -0.48%
O=c1c2cc([N+](=O)[O-])ccc2[nH]c2c([N+](=O)[O-])cc([N+](=O)[O-])cc12	inactive: 0.15%
Cc1ccccc1OP(=O)(Nc1ccccn1)Oc1ccccc1C	inactive: -1.36%
CC(NC(=O)COC(=O)C(O)(c1ccccc1)c1ccccc1)c1ccccc1 (stereo unspecified)	inactive: -0.08%
CCC(=O)N1C2C3N(C(=O)CC)C1C1N(C(=O)CC)C(C(N1C(=O)CC)N3C(=O)CC)N2C(=O)CC	inactive: -0.4%
O=C(OC1CN2CCC1CC2)c1ccccc1 (stereo unspecified)	inactive: -0.51%
Cc1ccc(OP(=O)(Nc2ccccn2)Oc2ccc(C)cc2)cc1	inactive: 0.51%
CC(=O)NC(SC(=S)N(CC(C)C)CC(C)C)C(Cl)(Cl)Cl (stereo unspecified)	inactive: 0.21%
COC(=O)c1cc2c(s1)N=C(c1ccccc1)N(C)P2(=O)N1CCOCC1 (stereo unspecified)	inactive: -0.43%
O=P1(N(CCCl)CCCl)OCCC2CCCCN21 (stereo unspecified)	inactive: -0.17%
Cc1ccc(NP(=O)(Oc2cccc(C)c2)Oc2cccc(C)c2)nc1	inactive: -0.28%
c1ccc(-c2nn[nH]n2)c(-c2nn[nH]n2)c1	inactive: -0.61%
CCNC(=S)/N=C(\N)N[N+](=O)[O-]	inactive: -0.38%
O=C(NC1CCS(=O)(=O)C1)NP(=S)(Oc1ccccc1)Oc1ccccc1 (stereo unspecified)	inactive: 0.35%
CC(=O)Nc1ccc(Oc2c([N+](=O)[O-])cc([N+](=O)[O-])cc2[N+](=O)[O-])cc1	inactive: 0.22%
CC(=O)Nc1ccc([As](=O)(O)O)c(O)c1	inactive: -0.38%
C[C@@H]1C=CCP(=O)(Oc2ccccc2)O1 (stereo partly specified)	inactive: -0.36%
C[C@H]1OP(=O)(Oc2ccccc2)C[C@@H]2O[C@@H]21 (stereo partly specified)	inactive: -0.16%
Cc1ccccc1CN(C)C(=O)COC(=O)C(O)(c1ccccc1)c1ccccc1	inactive: -0.07%
COC(=O)C1(C)COP(=O)(NCc2ccccc2)OC1 (stereo unspecified)	inactive: -0.4%
N#C/C(=C\c1ccc(N(CCBr)CCBr)cc1)C(N)=O	inactive: -0.35%
CC(=O)c1ccc(N2CC2c2ccncc2)cc1 (stereo unspecified)	inactive: -0.99%
CC(C)(C)C(=O)NC(Sc1ccccc1)C(Cl)(Cl)Cl (stereo unspecified)	inactive: -0.03%
CCc1cc(O)c([N+](=O)[O-])c(C)c1[N+](=O)[O-]	inactive: -0.09%
CCOc1ccc(C2=NCC(CBr)S2)cc1 (stereo unspecified)	inactive: -0.47%
O=P1(Nc2nc3ccc(Cl)cc3s2)COc2ccccc2O1 (stereo unspecified)	inactive: -0.22%

Compound	inhibition
c1nnnn1CCn1cnnn1	inactive: -0.17%
CC(C)C(=O)NC(Sc1ccccc1)C(Cl)(Cl)Cl (stereo unspecified)	inactive: -1.02%
O=P(Nc1nccs1)(c1ccccc1)c1ccccc1	inactive: -0.82%
O=C(OC1CN2CCC1CC2)c1cccc(Cl)c1 (stereo unspecified)	inactive: 1.08%
Nc1ccc([As](=O)(O)c2ccc([N+](=O)[O-])cc2)cc1	inactive: -0.01%
C(Cc1nn[nH]n1)Cc1nn[nH]n1	inactive: -0.96%
O=[As](O)(c1ccccc1)c1ccc(O)cc1	inactive: 0.14%
O=[N+]([O-])c1ccc(O)c(/C=N/Nc2ccc([N+](=O)[O-])cc2[N+](=O)[O-])c1	inactive: 0.02%
O=[N+]([O-])c1ncn(CCn2cnc([N+](=O)[O-])n2)n1	inactive: -0.8%
CC(=O)NC(SC(=S)N(C)C)C(Cl)(Cl)Cl (stereo unspecified)	inactive: -1.27%
C[C@H]1OP(=O)(Oc2ccccc2)[C@H](O)[C@H](O)[C@H]1N=[N+]=[N-] (stereo partly specified)	inactive: -0.24%
O=P(Nc1nc2ccccc2s1)(c1ccccc1)c1ccccc1	inactive: 1.15%
O=P(Nc1ccccn1)(c1ccc(Br)cc1)c1ccc(Br)cc1	inactive: 0.04%
CN(C)C1(CNC(=O)c2ccc(Cl)c(S(N)(=O)=O)c2)CCCCC1	inactive: -0.85%
Nc1ccc(CCCCOc2ccccc2)cc1	inactive: -0.03%
COc1ccc(N)c([N+](=O)[O-])c1[N+](=O)[O-]	inactive: -0.2%
O=C(O)CNc1ccc([As](=O)(O)O)cc1	inactive: -0.34%
O=[N+]([O-])c1cccc(NC2=NCC(CBr)S2)c1 (stereo unspecified)	inactive: -0.38%
COC(=O)C1(C)COP(=O)(Nc2ccccc2)OC1 (stereo unspecified)	inactive: 0.08%
O=[N+]([O-])c1ncn(CCn2ncnc2[N+](=O)[O-])n1	inactive: -0.36%
CC(C)(C)C(=O)NC(Sc1ccncn1)C(Cl)(Cl)Cl (stereo unspecified)	inactive: -0.29%
O=C(Nc1cc([As](=O)(O)O)ccc1O)c1ccccc1	inactive: -0.4%
O=P1(N(CCCl)CCCl)OCCCS1 (stereo unspecified)	inactive: -0.27%
c1cc(-c2nn[nH]n2)ccc1-c1nn[nH]n1	inactive: -0.03%
CC1CCN(C(=O)Oc2c(Cl)cc(Cl)c3cccnc23)CC1	inactive: -0.3%
CN(C)C(=O)OCCc1n(C)cc[n+]1C	inactive: -0.47%

Compound	inhibition
CC(C)=N/N=C(\N)N[N+](=O)[O-]	inactive: -0.34%
CC(C)c1nc(Nc2ccccc2)n(P(=O)(N(C)C)N(C)C)n1	inactive: -0.38%
CCN(/C(=N/P(=O)(N1CCOCC1)N1CCOCC1)N1CCOCC1)c1ccc(OC)cc1	inactive: -0.46%
C[N+]1=C2C=CC=CC=C2SC12C([N+](=O)[O-])=CC([N+](=O)[O-])=C[C-]2[N+](=O)[O-] (stereo unspecified)	inactive: 0.56%
Nc1ccc([As](=O)(O)c2ccc(N)cc2)cc1	inactive: -1.44%
CCc1nc2c(n1)c1c(non1O)c1c2no[n+]1[O-]	inactive: -0.62%
O=[N+]([O-])c1cc([N+](=O)[O-])c(CCNc2ccccc2)c([N+](=O)[O-])c1	inactive: 0.19%
Cc1ccc(NP(=O)(Oc2ccccc2)Oc2ccccc2)nc1	inactive: -0.51%
O=[N+]([O-])c1cccc2n[nH]nc12	inactive: 0.82%
CC(=O)N1C2C3N(C(C)=O)C1C1N(C(C)=O)C(C(N1C(C)=O)N3C(C)=O)N2C(C)=O	inactive: -0.37%
COc1ccc(C2=NCC(CBr)S2)cc1 (stereo unspecified)	inactive: -0.8%
O=[N+]([O-])C1C(O)C(O)C([N+](=O)[O-])C(O)C1O (stereo unspecified)	inactive: 0.2%
O=C(NC(Sc1ccncn1)C(Cl)(Cl)Cl)c1ccccc1 (stereo unspecified)	inactive: -0.65%
Oc1ccccc1CNc1ccccn1	inactive: -0.51%
CC(C)CC(=O)NC(Sc1ccc(Cl)cc1)C(Cl)(Cl)Cl (stereo unspecified)	inactive: -1.08%
Nc1cc(N)c2nonc2c1[N+](=O)[O-]	inactive: 0.5%
Clc1ccc(Cl)c(NC2=NCC(CBr)S2)c1 (stereo unspecified)	inactive: -0.2%
CN1CCCC(OC(=O)C(c2ccccc2)c2ccccc2)C1 (stereo unspecified)	inactive: -0.59%
Cc1ccc(OP(=O)(Nc2nccs2)Oc2ccc(C)cc2)cc1	inactive: -0.92%
COc1ccccc1OP(=O)(Nc1ccc(C)cn1)Oc1ccccc1OC	inactive: -1.17%
Cc1ccc(N/C(=N/P(=O)(N2CCOCC2)N2CCOCC2)N2CCOCC2)cc1	inactive: -0.48%
CN(C(=O)Cc1ccc(Cl)c(Cl)c1)[C@H]1CCCC[C@H]1N1CCCC1	inactive: -0.5%
NC(=O)c1cc([N+](=O)[O-])cc([N+](=O)[O-])c1N	inactive: 0.5%
Nc1cccc2ccc([As](=O)(O)O)cc12	inactive: 0.71%
CCN(N=Nc1nonc1N)c1nonc1N	inactive: -0.66%
Cc1ccc(NP(=O)(Oc2ccccc2F)Oc2ccccc2F)nc1	inactive: -0.13%

Compound	inhibition
CN(C(=O)Cc1ccc(Cl)c(Cl)c1)[C@H]1CCCC[C@@H]1N1CCCC1	inactive: -0.32%
CCOP(=O)(Nc1ccccc1)OCC	inactive: -0.16%
Cc1cc(SC(NC(=O)c2ccc(F)cc2)C(Cl)(Cl)Cl)ncn1 (stereo unspecified)	inactive: 0.2%
CN(C)P(=O)(N(C)C)n1c(Nc2ccccc2)nnc1-c1ccccc1	inactive: -0.23%
O=P(Nc1nc2ccc(Cl)cc2s1)(c1ccccc1)c1ccccc1	active: 13.9%
CCCC1OP(N)(=O)OCC1CC (stereo unspecified)	inactive: -0.33%
O=C(O)c1ccccc1[As](=O)(O)O	inactive: -0.66%
CC(=O)Nc1ccc([As](=O)(O)O)cc1	inactive: -0.48%
O=[N+]([O-])c1cc([N+](=O)[O-])c(-c2ccn[nH]2)s1	inactive: -0.84%
O=C(OC1CN2CCC1CC2)c1cccc2[nH]cnc12 (stereo unspecified)	inactive: -0.82%
CCN(CC)C(=S)SC(NC=O)C(Cl)(Cl)Cl (stereo unspecified)	inactive: -0.62%
CC(C)NC(=O)NP(=O)(Oc1ccccc1)Oc1ccccc1	inactive: -1.81%
ClCCSc1nnc(-c2cccnc2)o1	inactive: -0.62%
CC(C)c1ccc(OP(=O)(Nc2ccccn2)Oc2ccccc2F)cc1 (stereo unspecified)	inactive: -0.66%
COC(=O)C1(C)COP(=O)(N2CCCCCC2)OC1 (stereo unspecified)	inactive: -0.25%
[N-]=[N+]=NC1CCCCC1NC(=O)c1cc([N+](=O)[O-])cc([N+](=O)[O-])c1 (stereo unspecified)	inactive: -2.22%
Cc1ccc(OP(=O)(Nc2ccc([N+](=O)[O-])cn2)Oc2ccc(C)cc2)cc1	inactive: -0.81%
Cc1ccc2nc3c(c(C)c2c1)CC(C(Cl)Cl)S3 (stereo unspecified)	inactive: -0.72%
COc1cc(C(=O)NCC2(N3CCOCC3)CCCCC2)ccc1OCC(C)C	inactive: 0.1%
O=[N+]([O-])c1ccc(-c2cc([N+](=O)[O-])c(O)c([N+](=O)[O-])c2)cc1	inactive: 0.25%
O=[As](O)(c1ccc(O)cc1)c1ccccc1O	inactive: 1.26%
C[As](=O)(O)c1cccc(C(=O)O)c1	inactive: 0%
O=[N+]([O-])c1cc(Oc2ccc([N+](=O)[O-])cc2C(F)(F)F)cc([N+](=O)[O-])c1	inactive: -0.23%
